Compound potency records, mixed from different reports. Data source: NIAID ChemDB in PubChem.

Shared fields: growth or infection tests; organism: Hepatitis C virus; read by: luciferase; endpoint: EC50

ECn is the concentration giving n% inhibition of infection, replication or growth.

| structure | mutations | cell line | strain | result |
|---|---|---|---|---|
| O=C(Nc1cccc([N+](=O)[O-])c1)c1cccc(C(=O)Nc2cccc([N+](=O)[O-])c2)c1 | - | Huh7 | JFH-1 | >10 µM |
| CN(C)CCN(C)[C@H]1COc2ccccc2-c2c(C3CCCCC3)c3ccc(C(=O)O)cc3n2C1 | P89L K583E | 1C | GT3a | 0.537 µM |
| CC(=O)Nc1ccc(-c2ccc(Cl)cc2)c(COc2ccc(-c3nc4cc(C(=O)O)ccc4n3C3CCCCC3)cc2)c1 | - | JFH1 | - | 7.408 µM |
| CC(C)OC(=O)[C@H](C)N[P@](=O)(OC[C@H]1O[C@@](C#N)(c2ccc3c(N)ncnn23)[C@](C)(O)[C@@H]1OC(=O)C(C)C)Oc1ccccc1 | - | Huh7 replicon | 1a H77 | 0.18 µM |
| CC1=CC[C@H](C(=O)N(c2cc(C#CC(C)(C)C)sc2C(=O)O)C2CCC(O)(CO[C@H]3CCOC3)CC2)CC1 | P89L K583E | 1C | GT3a | 0.221 µM |
| C=CC(=O)NCC(=O)N1C[C@H](Oc2nccc3ccc(Br)cc23)C[C@H]1C(=O)N[C@]1(C(=O)NS(=O)(=O)C2CC2)C[C@H]1C=C | - | - | 1b WT | 0.21 µM |
| C[C@@]1(O)[C@H](O)[C@@H](CO)O[C@H]1n1cnc2c(N)ncnc21 | - | Huh7 replicon | 1b Con1 | 0.2 µM |
| Cc1cc(-c2ccc(N3C(=O)CC4(CCCC4)C3=O)c(C)c2)ccc1N1C(=O)CC2(CCCC2)C1=O | - | Huh7 | JFH-1 | >10 µM |
| CC1CCC(C(=O)N(c2cc(C#CC(C)(C)C)sc2C(=O)O)C2CCC(O)CC2)CC1 | - | Huh7-Lunet | GT2b | >50 µM |
| Cc1nc(N=C(N)N(C)C)[nH]c(=O)c1C | - | Huh7 | JFH-1 | >10 µM |
| Fc1ccccc1-c1nc2ccn(Cc3ccc(-c4ccc(C(F)(F)F)cc4C(F)(F)F)nn3)cc-2n1 | - | Huh7 | 2a | 22.05 µM |
| Nc1ncnc2c1ncn2[C@@H]1O[C@H](CO)C[C@H]1O | - | - | - | ~100 µM |
| CNC(=O)c1c(-c2ccc(F)cc2)oc2cc(N(CCO)S(C)(=O)=O)c(C3CC3)cc12 | P89L K583E | 1C | GT3a | 0.0039 µM |
| Nc1ccn([C@@H]2CS[C@H](CO)O2)c(=O)n1 | - | - | - | >150 µM |
| C1CC2NCCC3NCCC(N1)N32 | - | Huh7 | JFH-1 | >10 µM |
| CC1(O)C(O)C(CO)OC1n1cnc2c(N)ncnc21 | - | 1C | GT1b | 0.086 µM |
| CSc1ccc2c(c1)C(N1CCN(C)CC1)Cc1ccccc1S2 | - | Huh7 | JFH-1 | 3.95 µM |
| CC[C@@H]1C[C@]1(NC(=O)[C@@H]1C[C@@H](Oc2cc(-c3csc(NC(C)C)n3)nc3c(Cl)c(OCCN4CCOCC4)ccc23)CN1C(=O)[C@@H](NC(=O)OC1C[C@@H]2C[C@@H]2C1)C(C)(C)C)C(=O)O | P89L K583E | 1C | GT3a | 2.039 µM |

Again, the opening 2 rows:

structure	mutations	cell line	strain	result
O=C(Nc1cccc([N+](=O)[O-])c1)c1cccc(C(=O)Nc2cccc([N+](=O)[O-])c2)c1	-	Huh7	JFH-1	>10 µM
CN(C)CCN(C)[C@H]1COc2ccccc2-c2c(C3CCCCC3)c3ccc(C(=O)O)cc3n2C1	P89L K583E	1C	GT3a	0.537 µM

Conditions beyond the fields shown may differ between rows. An empty or dashed field is not shown.